Data from article PMC10362037.

Biological target: SARS-CoV-2 Omicron (B.1.1.529) Spike S1 (Sino Biological, 40591-V08H41) (SARS-CoV-2)
Assay: SPR

For “human ACE2 (Abclonal, RP01266) (from UniProt Q9BYF1 18-740) (receptor)”, the Kd was 0.0962 µM.
